Measured values from PMC10892935 (Viruses, 2024).
Some entries repeat one wording, which the source may state once for all of them. For some assays here: Which two values form the index is not stated here.

Legend:
FHV-1 = assay: Cytopathic effect (CPE) inhibition assay; details: selectivity index, CRFK cells
FHV-1 virus particles = assay: Transmission electron microscopy of drug-treated virus particles; parameters: species or system feline herpesvirus-1 (FHV-1); details: virus incubated in drug solution 37 °C 2 h, TEM

## O=C1O[C@H]2[C@@H]3OC(=O)c4cc(O)c(O)c(O)c4-c4c(O)c(O)c5oc(=O)c6c(c(O)c(O)c7oc(=O)c4c5c76)-c4c(cc(O)c(O)c4O)C(=O)OC[C@H]3OC(O)[C@@H]2OC(=O)c2cc(O)c(O)c(O)c2-c2c1cc(O)c(O)c2O (mixture of isomers) [Punicalagin]
FHV-1
  SI: 1.52
FHV-1 virus particles
  Structural integrity of virus particles: do not disrupt the structural integrity of virus particles

## O=C1OC[C@H]2OC(O)[C@H](O)[C@@H](O)[C@@H]2OC(=O)c2cc(O)c(O)c(O)c2-c2c(O)c(O)c3oc(=O)c4c(c(O)c(O)c5oc(=O)c2c3c54)-c2c1cc(O)c(O)c2O (mixture of isomers) [Punicalin]
FHV-1
  SI: 34.77
FHV-1 virus particles
  Structural integrity of virus particles: do not disrupt the structural integrity of virus particles

## CC1OC(OC2CCC3(C)C(CCC4(C)C3C=CC3=C5CC(C)(C)CCC5(CO)C(O)CC34C)C2(C)CO)C(O)C(OC2OC(CO)C(O)C(O)C2O)C1O (centres unmarked) [Saikosaponin B2]
FHV-1 virus particles
  Structural integrity of virus particles: do not disrupt the structural integrity of virus particles
